Anti-infective test results gathered from many reports (values: NIAID ChemDB through PubChem).

Percent inhibition refers to the dose given; in toxicity tests it is the harm to the cells. Fold resistance: result on the changed form divided by that on wild type. A number after MIC or MFC names an inhibition level or a share of isolates. Lines come from different laboratories, so protocols vary. ICn is the concentration giving n% inhibition. ECn is the concentration giving n% inhibition of infection, replication or growth. An empty or dashed field is not shown.

{"SMILES": "C#CC[C@@H](C(=O)N[C@H](/C=C/C(=O)OCC)C[C@@H]1CCNC1=O)n1cccc(NC(=O)c2cc(C)on2)c1=O", "kind": "culture", "organism": "Rhinovirus", "endpoint": "EC50", "method": "cytopathic effect / XTT", "strain": "Serotype 9", "cell line": "H1-HELA", "value": "0.079 µM"}
{"SMILES": "CCOC(=O)Nc1cc2oc(=O)c(-c3ccccc3)nc2c(N)n1", "kind": "culture", "organism": "Encephalitozoon intestinalis", "dose": "10 µg/mL", "endpoint": "inhibition", "cell line": "RK-13", "value": "57.1%"}
{"SMILES": "O=C(c1ccccc1Cl)N1C[C@H](CN2CCC(O)(CCCc3ccc(-c4nn[nH]n4)cc3)CC2)[C@@H](c2ccccc2)C1", "kind": "target", "protein": "CCR5", "endpoint": "fold resistance", "method": "radiometric", "changes": "CCR5-Y37A", "value": "0.91"}
{"SMILES": "CCOC(=O)Nc1cc(NC/C(=N/O)c2ccc(Cl)cc2Cl)c([N+](=O)[O-])c(N)n1", "kind": "culture", "organism": "Encephalitozoon intestinalis", "dose": "1 µg/mL", "endpoint": "inhibition", "cell line": "RK-13", "value": "3.9%"}
{"SMILES": "Cc1cn([C@@H]2O[C@H](CO[Si](C)(C)C(C)(C)C)[C@@]3(OS(=O)(=O)C=C3N)[C@H]2O[Si](C)(C)C(C)(C)C)c(=O)[nH]c1=O", "kind": "target", "organism": "HIV", "protein": "Reverse transcriptase", "endpoint": "fold resistance", "method": "nucleotide incorporation / radiometric", "changes": "RT-N137Q", "value": "0.41"}
{"SMILES": "O=C(NC(=O)c1c(F)cccc1F)Nc1cc(Cl)c(OC(F)(F)C(F)C(F)(F)F)cc1Cl", "kind": "culture", "organism": "Encephalitozoon intestinalis", "dose": "10 µg/mL", "endpoint": "inhibition", "cell line": "RK-13", "value": "61.8%"}
{"SMILES": "CCOc1ccc2ccccc2c1C(=O)Nc1nnc(NCC(C)(C)C)s1", "kind": "target", "organism": "Human cytomegalovirus", "protein": "Polymerase", "endpoint": "IC50", "value": ">25 µM"}
{"SMILES": "CC(C)=CCN1Cc2cc(Cl)cc3[nH]c(=S)n(c23)C[C@@H]1C", "kind": "culture", "organism": "HIV-1", "endpoint": "EC95", "changes": "RT-D67N K70R T215Y K219Q K103N", "cell line": "MT-4", "value": ">3 µM"}
{"SMILES": "CCOc1ccc2ccccc2c1C(=O)Nc1nnc(NCc2ccccn2)s1", "kind": "target", "organism": "Human cytomegalovirus", "protein": "Polymerase", "endpoint": "IC50", "value": "<25 µM"}
{"SMILES": "Cc1cn([C@H]2C=C[C@@H](COP(=O)(O)OP(=O)(O)OP(=O)(O)O)O2)c(=O)[nH]c1=O", "kind": "target", "organism": "HIV", "protein": "Reverse transcriptase", "endpoint": "IC50", "method": "nucleotide incorporation / radiometric", "changes": "RT-N137Y", "value": "2.6 µM"}
{"SMILES": "C[C@H](Cc1ccc(O)c(O)c1)[C@@H](C)Cc1ccc(O)c(O)c1", "kind": "culture", "organism": "Candida albicans", "endpoint": "MIC80", "method": "broth dilution", "strain": "CCC 125-2000", "value": "250 µg/mL"}
{"SMILES": "CCOC(=O)N1CCC(Nc2nnc(NC(=O)c3c(OCC)ccc4ccccc34)s2)CC1", "kind": "target", "organism": "Human cytomegalovirus", "protein": "Polymerase", "endpoint": "IC50", "value": "<25 µM"}
{"SMILES": "CN(CC(C)(CCN1CCC(N(CCO)C(=O)OCc2ccc([N+](=O)[O-])cc2)CC1)c1ccsc1)S(=O)(=O)c1ccccc1", "kind": "target", "protein": "CCR5", "endpoint": "IC50", "method": "radiometric", "changes": "CCR5-E283A", "value": ">10 µM"}
{"SMILES": "CCOC(=O)Nc1cc(NC(C)/C(=N/O)c2ccccc2)c([N+](=O)[O-])c(N)n1", "kind": "culture", "organism": "Encephalitozoon intestinalis", "dose": "0.1 µg/mL", "endpoint": "inhibition", "cell line": "RK-13", "value": "0%"}
{"SMILES": "CCCCCCCC/C=C/CCCCCCCC(=O)Nc1nnc(NCc2ccc(OC)c(OC)c2)s1", "kind": "target", "organism": "Human cytomegalovirus", "protein": "Polymerase", "endpoint": "IC50", "value": "<25 µM"}
{"SMILES": "CCOC(=O)Nc1cc2c(c(N)n1)N=C(c1cccc(OC)c1)CS2", "kind": "culture", "organism": "Encephalitozoon intestinalis", "dose": "10 µg/mL", "endpoint": "inhibition", "cell line": "RK-13", "value": "74.3%"}
{"SMILES": "O=C(Nc1nnc(NCC2CC2)s1)c1ccc(I)cc1", "kind": "target", "organism": "Human cytomegalovirus", "protein": "Polymerase", "endpoint": "IC50", "value": ">25 µM"}
{"SMILES": "CC(C)=CCOc1cc(NC(=S)c2ccoc2C)ccc1Cl", "kind": "target", "organism": "HIV", "protein": "Reverse transcriptase", "endpoint": "IC50", "method": "nucleotide incorporation / radiometric", "changes": "RT-N137T", "value": "0.03 µM"}
{"SMILES": "CCCCC1=Nc2c(cc(NC(=O)OCC)nc2N)NC1C", "kind": "culture", "organism": "Encephalitozoon intestinalis", "dose": "0.01 µg/mL", "endpoint": "inhibition", "cell line": "RK-13", "value": "19.1%"}
{"SMILES": "CCN(C(=O)OCc1ccccc1)C1CCN(CC[C@](C)(CN(C)S(=O)(=O)c2ccccc2)c2ccccc2)CC1", "kind": "target", "protein": "CCR5", "endpoint": "fold resistance", "method": "radiometric", "changes": "CCR5-Y37A", "value": "0.725"}
{"SMILES": "CCOC(=O)Nc1cc2[nH]c(-c3ccccc3)nc2c(N)n1", "kind": "culture", "organism": "Encephalitozoon intestinalis", "dose": "0.1 µg/mL", "endpoint": "inhibition", "cell line": "RK-13", "value": "0%"}
{"SMILES": "CC(C)c1cc(C(C)C)c(C(=O)Nc2nnc(NCc3cccnc3)s2)c(C(C)C)c1", "kind": "target", "organism": "Human cytomegalovirus", "protein": "Polymerase", "endpoint": "IC50", "value": ">25 µM"}
{"SMILES": "CCO/N=C/c1ccc(OCCC2CCN(c3ccc(C)nn3)CC2)cc1", "kind": "culture", "organism": "Rhinovirus", "endpoint": "EC50", "method": "neutral red", "strain": "106F (LDL receptor group 30)", "cell line": "KB", "value": "0.272 µM"}
{"SMILES": "CC(C)c1cc(C(C)C)c(C(=O)Nc2nnc(NCc3ccncc3)s2)c(C(C)C)c1", "kind": "target", "organism": "Human cytomegalovirus", "protein": "Polymerase", "endpoint": "IC50", "value": ">25 µM"}
{"SMILES": "Cc1c(CNc2cccc3c2CCCC3)cnc2nc(N)nc(N)c12", "kind": "culture", "organism": "Encephalitozoon intestinalis", "dose": "0.1 µg/mL", "endpoint": "inhibition", "cell line": "RK-13", "value": "67.2%"}

3 of the rows above, restated:

SMILES,kind,organism,protein,dose,endpoint,method,strain,changes,cell line,value
O=C(NC(=O)c1c(F)cccc1F)Nc1cc(Cl)c(OC(F)(F)C(F)C(F)(F)F)cc1Cl,culture,Encephalitozoon intestinalis,-,10 µg/mL,inhibition,-,-,-,RK-13,61.8%
C[C@H](Cc1ccc(O)c(O)c1)[C@@H](C)Cc1ccc(O)c(O)c1,culture,Candida albicans,-,-,MIC80,broth dilution,CCC 125-2000,-,-,250 µg/mL
Cc1c(CNc2cccc3c2CCCC3)cnc2nc(N)nc(N)c12,culture,Encephalitozoon intestinalis,-,0.1 µg/mL,inhibition,-,-,-,RK-13,67.2%